Pooled drug test results. Numbers come from NIAID ChemDB, via PubChem.

All rows: whole-cell or culture tests; species: Candida albicans

Rows are shuffled and stem from different studies.

{"structure": "Fc1ccc(COc2ccc(C(c3cccc4ccccc34)n3ccnc3)cc2)cc1.O=[N+]([O-])O", "strain": "17 strains", "endpoint": "MIC90", "value": "≥256 µg/mL"}
{"structure": "COc1cc(O)c2c(c1)C(=O)c1c(cc3c(c1O)-c1c(cc(C)c(C(=O)NC(CO)C(=O)O)c1O)[C@H](OC1OC(C)C(O)C(OC4OCC(O)C(O)C4O)C1O)C3O)C2=O", "strain": "A25578 (flucytosine-resistant)", "endpoint": "MIC", "value": "4 µg/mL"}
{"structure": "Cc1c(Sc2ccccc2)[n+](=O)c2cc(C(F)(F)F)ccc2n1[O-]", "strain": "Clinical isolate 20", "endpoint": "MIC", "value": "15.6 µg/mL"}
{"structure": "CCCCCOc1ccc(-c2ccc(-c3ccc(C(=O)N[C@H]4CCCNC(=O)C5[C@H](N)CN5C(=O)C(C(C)O)NC(=O)C(CCc5ccc(O)cc5)NC(=O)C5C[C@@H](O)CN5C(=O)C(C(C)O)NC4=O)cc3)cc2)cc1", "strain": "ATCC CCH442", "endpoint": "MIC", "value": "0.39 µg/mL"}
{"structure": "CCOc1cc2c(cc1F)n([O-])c(C)c(Cl)[n+]2=O", "strain": "Clinical isolate 11", "endpoint": "MIC", "value": "62.5 µg/mL"}
{"structure": "CC(C)N=C(N)c1ccc2nc(-c3ccc4c(c3)Cc3cc(-c5nc6ccc(C(N)=NC(C)C)cc6[nH]5)ccc3-4)[nH]c2c1", "strain": "Isolate 1 (strain 2-76)", "endpoint": "MIC", "value": "1.56 µg/mL"}
{"structure": "C[C@H]1[C@H](O)[C@@H](C)/C=C/C=C/C=C/C=C/C=C/C=C/C=C/[C@H](O[C@@H]2O[C@H](C)[C@@H](O)[C@H](N)[C@@H]2O)C[C@@H]2O[C@](O)(C[C@@H](O)C[C@@H](O)CC[C@H](O)[C@@H](O)C[C@@H](O)CC(=O)O[C@H]1C)C[C@H](O)[C@H]2C(=O)O", "strain": "37 isolates", "endpoint": "MIC90", "value": "0.5 µg/mL"}
{"structure": "CCCCCOc1ccc(-c2ccc(-c3ccc(C(=O)N[C@H]4CCCNC(=O)C5C[C@H](N)CN5C(=O)C(CCC[N+](C)(C)C)NC(=O)C(CCc5ccc(O)cc5)NC(=O)C5C[C@@H](O)CN5C(=O)C(C(C)O)NC4=O)cc3)cc2)cc1", "strain": "ATCC 10231", "endpoint": "MIC", "value": "0.39 µg/mL"}
{"structure": "O=[n+]1c(Sc2ccccc2)c(CBr)n([O-])c2ccccc21", "strain": "Clinical isolate 18", "endpoint": "MIC", "value": "15.6 µg/mL"}
{"structure": "CCCCCOc1ccc(-c2ccc(-c3ccc(C(=O)N[C@H]4CCCNC(=O)C5CCN5C(=O)C(C(C)O)NC(=O)C(CCc5ccc(O)cc5)NC(=O)C5C[C@@H](O)CN5C(=O)C(C(C)O)NC4=O)cc3)cc2)cc1", "strain": "ATCC CCH442", "endpoint": "MIC", "value": "0.78 µg/mL"}
{"structure": "Fc1ccc(COc2ccc(C(c3ccc4ccccc4c3)n3ccnc3)cc2)cc1.O=[N+]([O-])O", "strain": "17 strains", "endpoint": "MIC90", "value": "≥256 µg/mL"}
{"structure": "C=CCc1ccc(O)c(OC)c1", "strain": "3043", "read by": "turbidity", "endpoint": "MIC90", "value": "500 µg/mL"}
{"structure": "Fc1ccccc1COc1ccc(C(c2ccc3ccccc3c2)n2ccnc2)cc1", "strain": "16 strains", "endpoint": "MIC90", "value": "128 µg/mL"}
{"structure": "CCCCCCCCOc1ccc(N2CCN(c3ccc(C(=O)N[C@H]4CCCNC(=O)C5C[C@H](N)CN5C(=O)C(C(C)O)NC(=O)C(CCc5ccc(O)cc5)NC(=O)C5C[C@@H](O)CN5C(=O)C(C(C)O)NC4=O)cc3)CC2)cc1", "strain": "ATCC 10231", "endpoint": "MIC", "value": "0.2 µg/mL"}
{"structure": "Clc1cccc(Cl)c1COc1ccc(C(c2ccc(-c3ccccc3)cc2)n2ccnc2)cc1.O=[N+]([O-])O", "strain": "16 strains", "endpoint": "Mean MIC", "value": "≥256 µg/mL"}
{"structure": "Cc1c(Cl)[n+](=O)c2cc(Cl)ccc2n1[O-]", "strain": "Clinical isolate 16", "endpoint": "MIC", "value": "7.8 µg/mL"}
{"structure": "Fc1ccc(COc2ccc(C(c3nccc4ccccc34)n3ccnc3)cc2)c(F)c1", "strain": "16 strains", "endpoint": "MIC90", "value": "≥256 µg/mL"}
{"structure": "Cc1c(O)cccc1C(=O)N[C@@H](CSc1ccccc1)[C@H](O)CN1C[C@H]2CCCC[C@H]2C[C@H]1C(=O)NC(C)(C)C", "strain": "I173A", "endpoint": "MIC", "value": "64 µg/mL"}

2 of the rows above, restated:

structure,strain,read by,endpoint,value
CCCCCCCCOc1ccc(N2CCN(c3ccc(C(=O)N[C@H]4CCCNC(=O)C5C[C@H](N)CN5C(=O)C(C(C)O)NC(=O)C(CCc5ccc(O)cc5)NC(=O)C5C[C@@H](O)CN5C(=O)C(C(C)O)NC4=O)cc3)CC2)cc1,ATCC 10231,,MIC,0.2 µg/mL
Fc1ccc(COc2ccc(C(c3nccc4ccccc34)n3ccnc3)cc2)c(F)c1,16 strains,,MIC90,≥256 µg/mL

Blank or dashed fields: not listed here. A number after MIC or MFC names an inhibition level or a share of isolates.